Each structure is given as a SMILES string. “And” between values parts separate entries of the source, which are not always exact repeats. Equal entries are not always repeated.

One data set deals with Vero cells. The data set is described as follows: cytotoxicity against Vero cells (resazurin viability assay). The note with it: CC50 (Vero cells)/IC50 (T. b. brucei); for SI Vero Cells: Table 1. Here is the method: The resulting pellet was resuspended and counted in a Neubauer chamber in the presence of trypan blue to exclude nonviable cells colored in blue. Once the cell load was estimated, they were either used for the next passage in a new flask or processed for the cytotoxicity assay.
Briefly, Vero cells at a density of 10^4 cells per well were plated in 100 µL of complete DMEM and incubated overnight to allow cell attachment. Plates were then controlled under an inverted fluorescence microscope (Lumascope LS520) to ensure adherence, sterility and cell integrity. Thereafter, culture medium from each well was carefully emptied, and plates were filled with 90 µL of fresh complete medium followed by the addition of 10 µL of serial 5-fold dilutions of compound solutions. […] Fluorescence was then read using a Magelan Infinite M200 fluorescence multiwell plate reader (Tecan) with excitation and emission wavelengths of 530 and 590 nm, respectively. The percentage of cell viability was calculated from readouts, and the median cytotoxic concentration (CC50) for each compound was deduced from concentration–response curves using GraphPad Prism 8.0 software as described above. Selectivity indexes were then determined for each test substance as follows: SI = CC50(Vero cells)/IC50(T. brucei brucei).

For data set [1], the system named is bloodstream forms of Trypanosoma brucei brucei. Briefly: resazurin-based antitrypanosomal inhibition assay. It is filed as cell-based. The settings on record: for fold more active than the parent hit 1: IC50 ratio; for fold increase in antitrypanosomal potency with respect to corresponding chlorinated congener: congeners 3 and 2. Here is the method: Parasites were axenically cultivated in sterile vented flasks containing complete Hirumi’s modified Iscove’s medium 9 (HMI-9) [500 mL IMDM (Iscove’s modified Dulbecco’s medium) (Gibco, Waltham, MA, USA) supplemented with 10% (v/v) heat-inactivated fetal bovine serum (HIFBS) (Sigma Aldrich), 10% (v/v) serum plus (Sigma Aldrich), HMI-9 supplement (1 mM hypoxanthine, 0.16 mM thymidine, 50 µM bathocuproine disulfonic acid, 1.5 mM cysteine, 1.25 Mm pyruvic acid, 0.2 mM 2-mercaptoethanol (Sigma Aldrich)), and 1% (v/v) penicillin–streptomycin (Sigma Aldrich) and incubated at 37 °C in a 5% CO2 atmosphere.
The in vitro inhibitory potency of the 400 MMVPB compounds against bloodstream forms of Trypanosoma brucei brucei was evaluated using the resazurin-based inhibition assay as previously described. Briefly, parasites at their mid-logarithmic growth phase were counted, and the cell density was adjusted with fresh complete HMI-9 medium to 2 × 10^5 trypanosomes per mL. Then, 90 µL of parasite suspension was then distributed into the wells of 96-well flat-bottomed plates containing 10 µL of compounds for a final test concentration of 10 µM. […] Each assay plate was set up in duplicate and repeated two times. The percent parasite inhibition was determined for each compound based on fluorescence readouts relative to the mean fluorescence of negative control wells.
y = 100/[1+ 10^(logIC50/99-x)H], where H is the hill coefficient or slope factor [60].

As to `COc1ccccc1NCc1ccc2nc(N)nc(N)c2c1` [Analog 7, 6-(((2-methoxyphenyl)amino)methyl)quinazoline-2,4-diamine], the SI in the data set with Vero cells (Table 4) was 412.75. In the data set on Vero cells (Table 4, listed as MMV1578467), the SI is 412. For the same molecule, in data set [1], the “fold more active than the parent hit 1” value is listed as ~ 43 fold; the “fold increase in antitrypanosomal potency with respect to corresponding chlorinated congener” value was 53 fold and ~ 53 fold.
Consider `Nc1nc(N)c2cc(CNc3cc(Cl)ccc3Cl)ccc2n1` [Analog 10, 6-(((2,5-dichlorophenyl)amino)methyl)quinazoline-2,4-diamine], for which the SI with Vero cells (Table 4) is ~ 1737 and 1737.44; with Vero cells (Table 4, listed as MMV1578445) it was 1737. The “fold more active than the parent hit 1” value in data set [1] is given as ~ 58 fold.
In the data set on Vero cells (Table 3), `O=C(Nc1ccc(N2CCNCC2)nc1)c1oc(-c2ccccc2)nc1C(F)(F)F` [MMV024937] displayed an SI of 11.
For the molecule `COc1ccc(NCc2ccc3nc(N)nc(N)c3c2Cl)cc1` [Analog 4], the SI in the data set with Vero cells (Table 4) turned out to be 7.05.
In the case of `Cc1ccc(C(=O)Nc2ccc(S(=O)(=O)O)c3cc(S(=O)(=O)O)cc(S(=O)(=O)O)c23)cc1NC(=O)c1cccc(NC(=O)Nc2cccc(C(=O)Nc3cc(C(=O)Nc4ccc(S(=O)(=O)O)c5cc(S(=O)(=O)O)cc(S(=O)(=O)O)c45)ccc3C)c2)c1` [MMV637953, Suramine, reference compound], the “SI Vero Cells” value in the data set on Vero cells is given as greater than 1128.
As to `COc1ccc(C2=NN(C3CCCCCC3)C(=O)[C@@H]3CC=CC[C@H]23)cc1OCCCCOc1ccc(-c2nn[nH]n2)cc1` [MMV690027], in the data set with Vero cells (Table 2), the SI is listed as greater than 36.
Same read-out and setting: then `CO[C@@H](C(=O)N1Cc2[nH]nc(NC(=O)c3ccc(N4CCN(C)CC4)cc3)c2C1)c1ccccc1` [MMV676600], with greater than 154.
`O=C(NCCN1CCCC1)c1cc(NCCCCN2CCC(F)(F)CC2)nc2ccc(Cl)cc12` [MMV667494] displayed an SI with Vero cells (Table 3) greater than 75.
In the data set with Vero cells (Table 2), `NCCN(C(=O)c1ccc(Cl)cc1Cl)c1ccc(OCc2ccc(Cl)cc2)cc1` [MMV688371] yielded an SI of 5.
Regarding `COc1ccc(NCc2ccc3nc(N)nc(N)c3c2)cc1OC` [Analog 6], in the data set on Vero cells (Table 4), the SI is greater than 178.98. Further, the “fold increase in antitrypanosomal potency with respect to corresponding chlorinated congener” value in data set [1] turned out to be 4 fold.
As for `N=C(N)c1ccc(-c2cc(-c3ccccc3)on2)cc1` [MMV688514], in the data set on Vero cells (Table 2), the SI was 5.
The same measure, in the same setting: then `Cc1nn(C)c(C)c1NS(=O)(=O)c1c(Cl)cc(-c2ccnc(N3CCNCC3)c2)cc1Cl` [MMV688180], with >42,826.
For the molecule `COc1ccc(OC)c(NCc2ccc3nc(N)nc(N)c3c2Cl)c1` [Analog 1, 2,4-diamino-5-chloro-6-[(2,5-dimethoxyanilino)methyl]quinazoline], in the data set on Vero cells (Table 3, listed as MMV675968), the SI was > 35 and >35.6.
Regarding `Cc1ncc(-c2ccnc(Nc3ccc(S(C)(=O)=O)cc3)n2)n1C(C)C` [MMV676604], the SI with Vero cells (Table 2) is reported as 232.
Take `O=C(Nc1ccc(C(F)(F)F)c(C(F)(F)F)c1)c1cc(Cl)ccc1O` [MMV687807]: in the data set with Vero cells (Table 3), the SI is on record as 23.
In the case of `O=C(Nc1ccc2c(c1)B(O)OC2)c1ccccc1C(F)(F)F` [MMV652003], the SI in the data set on Vero cells (Table 2) is on record as greater than 1557.87.
In the data set on Vero cells (Table 3), `c1cncc(NCc2ccc(-c3cc4ccncc4cc3OC3CCNCC3)s2)c1` [MMV023969] had an SI of 3.
On to `OC(c1cc(C(F)(F)F)nc2c(C(F)(F)F)cccc12)C1CCCCN1` (centres unmarked) [MMV000016, Mefloquine, reference compound], for which, in the data set on Vero cells, the “SI Vero Cells” value was 6.89.
Turning to `Cc1ccccc1NCc1ccc2nc(N)nc(N)c2c1` [Analog 9], the SI in the data set with Vero cells (Table 4) came out at 115.97.
For `c1ccc(Oc2ccc(-c3cc(N4CCNCC4)[nH]n3)cc2)cc1` [MMV687706], in the data set with Vero cells (Table 2), the SI stood at 21.
In the data set on Vero cells (Table 3), `CN1CCN(CCCOc2ncc(Nc3ncc(-c4ccc(C(F)(F)F)c(F)c4)nc3C(N)=O)cn2)CC1` [MMV687812] showed an SI of 1.5.
In the data set with Vero cells (Table 3), `CC(C)n1nc(-c2cc3c(Cl)cccc3[nH]2)c2c(N)ncnc21` [MMV688417] yielded an SI of 3.
On the same count and under the same terms, then `CN(C)c1cc(NC(=O)Nc2ccccc2)c2ccccc2n1` [MMV006901], with 1.73.
For `O=C(NCCc1ccn(-c2ccccc2)n1)C1CCCCC1` [MMV688795], the SI in the data set on Vero cells (Table 2) was greater than 282.
`Cn1c(=O)c2c(S(C)(=O)=O)snc2n(C)c1=O` [MMV687251] yielded an SI with Vero cells (Table 3) of 3.
Still for that read-out and setting: the figure for `NC(=O)c1cc(-c2ccsc2)ccc1OCCOc1ccccc1` [MMV687138] is greater than 199.
In the data set on Vero cells (Table 4), `Cc1ccccc1NCc1ccc2nc(N)nc(N)c2c1Cl` [Analog 5] showed an SI greater than 43.47.
Regarding `CNC(=O)C1Cc2ccccc2N1C(=O)Cc1ccc(F)cc1` (centres unmarked) [MMV188296], in the data set on Vero cells (Table 2), the SI was greater than 98.
Molecule `OCCc1ccc(Nc2nccc(-c3nnc4ccccn34)n2)cc1` [MMV028694] came in with an SI with Vero cells (Table 3) of 6.

Values taken from PMC9571290, “Preliminary Structure–Activity Relationship Study of the MMV Pathogen Box Compound MMV675968 (2,4-Diaminoquinazoline) Unveils Novel Inhibitors of Trypanosoma brucei brucei” (Molecules, 2022).
